Assay results reported in patent US20220347299A1, “FLUORESCENT SYSTEMS FOR BIOLOGICAL IMAGING AND USES THEREOF” (LIGHTOX LIMITED, priority 2019, published 2022).

Tests used:
HaCaT keratinocytes = assay: Co-staining with organelle markers, co-localisation (PCC); assay type: cell-based; conditions: for average PCC Value with LysoTracker / average PCC Value with MitoTracker / average PCC Value with Nile Red / subcellular localisation in HaCaT keratinocytes (summary): HaCaT; for average PCC Value with LysoTracker / average PCC Value with MitoTracker / average PCC Value with Nile Red: 1 μM compound; for average PCC Value with LysoTracker / average PCC Value with MitoTracker / average PCC Value with Nile Red / co-localisation with Anti-lamin A/C (no PCC value): 30 minutes; for average PCC Value with LysoTracker: LysoTracker Red DND-99; for average PCC Value with MitoTracker: MitoTracker Deep Red; for subcellular localisation in HaCaT keratinocytes (summary): co-staining with organelle markers; for co-localisation with Anti-lamin A/C (no PCC value): fixed HaCaT, 5 μM compound in PBS, anti-lamin A/C antibody
Description: To study the localisation of compounds in biological cells, co-staining of compounds of formula I with specific organelle markers (fluorescent dyes and antibodies) within biological cells was conducted. The following compounds were studied: compounds 6, 7, 12, 13, 14 and 15. HaCaT keratinocyte cell lines were used for the following experimental procedures. The cells were incubated in cell culture media (94% Dulbecco's Modified Eagle Medium (DMEM), 5% Foetal Bovine Serum (FBS) and 1% Penicillin Streptomycin solution (Pen-Strep). The cells were plated in 8-well plates, at a concentration of 25,000 cells per ml. 200 μl of cell suspension was added to each well, and the cells were incubated for 2 days before staining and imaging was carried out. In order to visualise the mitochondria, cells were probed with the mitochondrial dye MitoTracker® Deep Red. Cells to be stained were incubated with 200 μl MitoTracker® Deep Red solution (200 nM MitoTracker® and 1 μM Formula I compound in cell culture media) per well (N=3) for 30 minutes. Nile Red was used to identify lipids within the cells. 200 μl Nile Red Lipophilic dye (10 μg/ml Nile Red and 1 μM Formula I compound in cell culture media) was added to each well (N=3) and incubated for 30 minutes. For the detection of lysosomes within the cells, LysoTracker® Red DND-99 dye was used. 200 μl LysoTracker® Red DND-99 (50 nM LysoTracker® and 1 μM Formula I compound solution in cell culture media) was added to each well (N=3) and incubated for 30 minutes. For visualisation of the endoplasmic reticulum (ER), cells were stained with BODIPY® ER-Tracker® Red. 200 μl BODIPY ER-Tracker® Red (1 μM BODIPY® and 1 μM Formula I compound solution in cell culture media) was added to each well (N=3) and incubated for 30 minutes. Following incubation, the cell culture media containing dye was removed, and cells were washed twice with 200 μl phosphate buffered saline (PBS). After washing, 200 μl PBS was added into each well for imaging. For visualisation of the nuclear lamina, cells were probed with an anti-lamin A/C antibody. The cells were plated on 22×22 mm cover slips (10,000 cells/ml) and incubated for 2 days before staining. The cells were washed with PBS to remove excess media before staining. The cells were fixed with 4% paraformaldehyde (PFA) for 10 minutes at room temperature, before being washed twice in PBS for 5 minutes. Following washing, the cells were permeabilised in 0.4% Triton X-100 in PBS for 10 minutes. The cells were subsequently washed three times in PBS for 5 minutes, before being incubated in blocking buffer (1% BSA, 0.1% fish gelatine and 0.1% Triton X-100 in PBS) for 15 minutes at room temperature. The cells were incubated in primary antibody (mouse anti-lamin A/C IgG in blocking buffer) for 1 hour at room temperature. The cells were then washed twice in blocking buffer and incubated in secondary antibody (anti-mouse Alexa-594 IgG in blocking buffer) for 30 minutes at room temperature. Cells were washed twice in PBS for 10 minutes at room temperature. For cell staining with compounds of formula I, 5 μM of the compound of formula I in PBS was added to the cells for 30 minutes at room temperature. Cells were then washed five times for 5 minutes in PBS. Following washing, the cells were mounted onto non-charged microscopy slides using 6 μl Mowiol® per cover slip as mounting media. A Zeiss 880 confocal microscope was used for all the imaging work. [table] Image) Coloc2 software was used to calculate co-localization statistics between the compounds of formula I and the organelle marker images. The background was subtracted from each image and a region of interest (ROI) was used to target the analysis. The point spread function (PSF) of each image was calculated as 2.0 and Coastes' iterations was set to 100. The statistic quantified was the Pearson's Correlation Coefficient (PCC). PCC gives a number ranging from +1 to −1:1=perfect co-localisation; 0=no relationship; and, −1=perfect anti-co-localisation. […]

black-grass cells = assay: Labelling and confocal imaging of black-grass cell suspension culture; assay type: cell-based; conditions: 1 μM, 1 h, room temperature; for subcellular localisation in black-grass cells: 405/460-540 nm

Compound	average PCC Value with LysoTracker (HaCaT keratinocytes)	average PCC Value with MitoTracker (HaCaT keratinocytes)	average PCC Value with Nile Red (HaCaT keratinocytes)	subcellular localisation in HaCaT keratinocytes (summary) (HaCaT keratinocytes)	co-localisation with Anti-lamin A/C (no PCC value) (HaCaT keratinocytes)	fluorescence signal in black-grass cells (black-grass cells)	subcellular localisation in black-grass cells (black-grass cells)
CC(C)(C)OC(=O)/C=C/c1ccc(C#Cc2ccc(N3CCNCC3)cc2)cc1 [Compound 6, tert-butyl (2E)-3-(4-{2-[4-(piperazin-1-yl)phenyl]ethynyl}phenyl)prop-2-enoate]	0.81	0.08	0.42	primarily localise to the lysosomes with some ER localisation and lipophilic staining	Co-	–	–
COC(=O)/C=C/c1ccc(C#Cc2ccc(N3CCNCC3)cc2)cc1 [Compound 7, methyl (2E)-3-(4-{2-[4-(piperazin-1-yl)phenyl]ethynyl}phenyl)prop-2-enoate]	0.75	0.12	0.39	primarily shows localisation to the lysosomes with some localisation to the ER and Golgi apparatus and also shows some lipophilic staining	Co-	acceptable signal	label the inner cell membrane; however, compound 7 showed a stronger signal in the cell vesicle (possibly lipid vesicle)
COC(=O)/C=C/c1ccc(C#Cc2ccc(N(C)CCN)cc2)cc1 [Compound 12, methyl (2E)-3-[4-(2-{4-[(2-aminoethyl)(methyl)amino]phenyl}ethynyl)phenyl]prop-2-enoate]	0.73	0.14	0.37	primarily localise to the lysosomes with some ER localisation and lipophilic staining present	No Co-	strong signal	specifically label plasma membrane and cell plate
COC(=O)/C=C/c1ccc(C#Cc2ccc(N3CCN(C(C)=O)CC3)cc2)cc1 [Compound 13, methyl (2E)-3-(4-{2-[4-(4-acetylpiperazin-1-yl)phenyl]ethynyl}phenyl) prop-2-enoate]	0.22	−0.35	0.00	no detectable co-localisation with the organelle markers used	No Co-	–	–
COC(=O)/C=C/c1ccc(C#Cc2ccc(N3CCN(CCC[P+](c4ccccc4)(c4ccccc4)c4ccccc4)CC3)cc2)cc1.[Br-] [Compound 14, (3-{4-[4-(2-{4-[(1E)-3-methoxy-3-oxoprop-1-en-1-yl]phenyl}ethynyl)phenyl]piperazin-1-yl}propyl)triphenylphosphonium bromide]	0.11	0.65	0.51	localisation to the mitochondria and ER with some lipophilic staining	No Co-	–	label inner cell membrane as well as small vesicles
COC(=O)/C=C/c1ccc(C#Cc2ccc(N(C)CCNS(=O)(=O)c3ccc(C)cc3)cc2)cc1 [Compound 15, methyl (2E)-3-{4-[2-(4-{methyl[2-(4-methylbenzenesulfonamido)ethyl]amino}phenyl)ethynyl]phenyl}prop-2-enoate]	0.21	0.16	0.82	primarily show lipophilic localisation	No Co-	–	label small vesicle in black-grass cells
